# Data: article PMC10479830, “Nucleoside analogs NM107 and AT-527 are antiviral against rubella virus” (PNAS Nexus, 2023)
# Tested on: rubella RA27/3 virus
# Type: cell-based
# Details: A549 cells
# From the text: We developed a high-throughput, high-content, cell-based assay to monitor rubella virus infection of the human respiratory cell line A549, as the respiratory tract is infected in humans. […] We infected A549 cells with the rubella virus vaccine strain (RA27/3) and monitored infection using an antibody to the viral glycoprotein E1 (Fig. 1A) ([13]). […] To evaluate the utility of nanchangmycin as a positive control for our assay development, we performed a dose–response assay for nanchangmycin using automated fluorescent microscopy to quantify the cell number as a surrogate for cell viability and percent infection (Fig. 1A).
# A549 cells were plated in 384 well plates at 3,000 cells/well, HBMEC were plated at 7,000 cells/well, or Jeg-3 cells were plated at 3,000 cells/well in 20 μL growth media. The next day, 50 nL of drugs were added to assay wells, yielding a final concentration of 1 µM. The positive control nanchangmycin (n = 32) and the negative control DMSO (n = 32) were spotted on each assay plate. […] HBMECs were spin-infected by centrifuging at 1,250×g for 1 h at 25°C. Cells were fixed at 48 h post infection (hpi) in 4% formaldehyde/phosphate-buffered saline (PBS) for 15 min at room temperature and then washed twice with PBS. Cells were blocked with blocking buffer [2% bovine serum albumin in PBS with 0.1% Triton X-100 (PBST)]) for 1 h and incubated with primary antibody (mouse antirubella E1, CDC, 1 μg/mL) overnight at 4°C. […] Cells were washed three times with PBST and imaged using ImageXpress Micro (Molecular Devices). Cells were imaged with a 10× objective capturing four sites per well. The total number of cells and the percentage of infected cells were measured using the MetaXpress 5.3.3 cell scoring module. The aggregated percent infection of the DMSO and 2 µM nanchangmycin control wells on each assay plate were used to calculate Z′-factors. Sample well infection was normalized to aggregated DMSO plate control wells and expressed as percentage of control (POC = [%Infection sample/Average %Infection DMSO] × 100) and Z-score (Z = [%Infection sample − Average %Infection DMSO]/Standard Deviation %Infection DMSO) in Spotfire (PerkinElmer). Candidate hits were selected as compounds with POC <40% and viability >60%, compared with vehicle control.
# Drugs were purchased as powders from Selleckchem, MedchemExpress, and MedKoo and suspended in DMSO. Drugs were arrayed in 8-pt dose–response in 384 well plates. Infections were performed using the screening conditions. DMSO (n = 32) and 2 µM nanchangmycin (n = 16) were included on each validation plate as controls for normalization. Infection at each drug concentration was normalized to aggregated DMSO plate control wells and expressed as POC (POC = %Infection sample/Average %Infection DMSO cont). A nonlinear regression curve fit analysis (GraphPad Prism 8) was performed on POC infection and cell viability using log10 transformed concentration values to calculate IC50 values for infection and CC50 values for cell viability. SI was calculated as a ratio of the drug's CC50 and IC50 values (SI = CC50/IC50).
row,Compound,selectivity index (SI = CC50/IC50)
1,Nc1nc(-c2nn(Cc3ccccc3F)c3ncccc23)ncc1C1CC1 [BAY-41-2272],7
2,Cn1cc(C2=C(c3cccc(N)c3)C(=O)NC2=O)c2ccccc21 [CP21R7],1
3,Cc1ccc(S(=O)(=O)Cc2nc(-c3ccc(C(=O)NCc4cccnc4)cc3)oc2C)cc1 [STF-118804],> 500
4,CO[C@H]1CC[C@@H](O[C@H]2C[C@H]([C@]3(C)CC[C@]4(C[C@H](O)[C@@H](C)[C@@H]([C@@H](C)/C=C(\C)C(=O)[C@H](C)C[C@H](C)C(=O)O)O4)O3)O[C@]3(O[C@@H]([C@H]4O[C@@](O)(CO)[C@H](C)C[C@@H]4C)C[C@@H]3C)[C@@H]2C)O[C@@H]1C [nanchangmycin],100
5,PF-429242,298
